Measured values reported in patent publication EP1087941B9, “THIOLESTERS AND USES THEREOF” (THE UNITED STATES OF AMERICA, as represented by THE …, priority 1998, dated 1999).

Tested on: HIV-1RF
Experiment: XTT cytoprotection assay (antiviral activity)
Assay type: cell-based
Details: for loss of antiviral activity, fold decrease: BITA form compared with the disulfide form; for Antiviral Activity TI: in vitro therapeutic index (IC50/EC50)
From the text: One exemplary means to determine antiviral activity is with CEM-SS cells and virus (e.g., HIV-1RF) (MOI = 0.01) using the XTT (2,3-bis[2-methoxy- 4-nitro-5-sulfophenyl] -5- [(phenylamino)carbonyl]-2H-tetrazolium hydroxide) cytoprotection assay, as described by Rice (1993) PNAS 90:9721-9724, and Rice (1997) Antimicrob. Agents Chemother. 41:419-426. Briefly, cells are infected with HIV-1RF (or other virus to be tested) in the presence of various dilutions of test compounds (thiolesters and controls). The cultures are incubated for seven days. During this time control cultures without protective compounds (i.e., compounds with anti-viral activity) replicate virus, induce syncytia, and result in about 90% cell death. The cell death is measured by XTT dye reduction. XTT is a soluble tetrazolimn dye that measures mitochondrial energy output, similar to MTT. Positive controls using dextran sulfate (an attachment inhibitor) or 3'-Azido -2'-3'-dideoxythymidine, AZT (a reverse transcriptase inhibitor) are added to each assay. Individual assays are done in duplicate using a sister plate method.
Effective antiviral concentrations providing 50% cytoprotection (EC50), and cellular growth inhibitory concentrations causing 50% cytotoxicity (IC50) are calculated.

NS(=O)(=O)c1ccc(Cn2sc3ccccc3c2=O)cc1 [23 BITA]
loss of antiviral activity, fold decrease: 42 fold

NS(=O)(=O)c1ccc(CCn2sc3ccccc3c2=O)cc1 [24 BITA]
loss of antiviral activity, fold decrease: 5 fold

COc1ccc(C(=O)Nc2ccc(S(=O)(=O)c3ccc(NC(=O)c4ccccc4SSc4ccccc4C(=O)Nc4ccc(S(=O)(=O)c5ccc(NC(=O)c6ccc(OC)cc6)cc5)cc4)cc3)cc2)cc1 [Compound 29D]
Antiviral Activity TI (Table 3): 20.9

O=C(Nc1ccc(S(=O)(=O)c2ccc(NC(=O)c3ccccc3SSc3ccccc3C(=O)Nc3ccc(S(=O)(=O)c4ccc(NC(=O)c5cccs5)cc4)cc3)cc2)cc1)c1cccs1 [Compound 30D]
Antiviral Activity TI (Table 3): 15.6

O=C(Nc1ccc(S(=O)(=O)c2ccc([N+](=O)[O-])cc2)cc1)c1ccccc1SSc1ccccc1C(=O)Nc1ccc(S(=O)(=O)c2ccc([N+](=O)[O-])cc2)cc1 [Compound 31D]
EC50 increased, fold (disulfide form of compound 31 compared with 26): 2.6 fold

O=C(Nc1ccc(S(=O)(=O)c2ccc(NC(=O)c3ccccc3SSc3ccccc3C(=O)Nc3ccc(S(=O)(=O)c4ccc(NC(=O)c5cc([N+](=O)[O-])cc([N+](=O)[O-])c5)cc4)cc3)cc2)cc1)c1cc([N+](=O)[O-])cc([N+](=O)[O-])c1 [Compound 33D]
Antiviral Activity TI (Table 3): >1.3

O=C(Nc1ccc(S(=O)(=O)c2ccc(NS(=O)(=O)Cc3ccccc3[N+](=O)[O-])cc2)cc1)c1ccccc1SSc1ccccc1C(=O)Nc1ccc(S(=O)(=O)c2ccc(NS(=O)(=O)Cc3ccccc3[N+](=O)[O-])cc2)cc1 [Compound 34D]
Antiviral Activity TI (Table 3): >25.7

NS(=O)(=O)c1ccc(CNC(=O)c2ccccc2SC(=O)CCCC[n+]2ccccc2)cc1 [Compound 48]
Antiviral Activity TI (Table 6): 50

O=C(CCCC[n+]1ccccc1)Sc1ccccc1C(=O)Nc1ccc(S(=O)(=O)c2ccc(NS(=O)(=O)Cc3ccccc3[N+](=O)[O-])cc2)cc1 [Compound 50]
Antiviral Activity TI (Table 6): >109

CC(=O)Nc1ccc(S(=O)(=O)c2ccc(NC(=O)c3ccccc3SC(=O)CCCC[n+]3ccccc3)cc2)cc1 [Compound 51]
Antiviral Activity TI (Table 6): 63

CC(=O)Nc1cccc(S(=O)(=O)c2cccc(NC(=O)c3ccccc3SC(=O)CCCC[n+]3ccccc3)c2)c1 [Compound 52]
Antiviral Activity TI (Table 6): 43
